Source: paper PMC5877874, “Prenylated phloroglucinols from Hypericum scruglii, an endemic species of Sardinia (Italy), as new dual HIV-1 inhibitors effective on HIV-1 replication” (PLoS ONE, 2018)

System: TZM-bl cells
Assay: Cell toxicity, metabolic XTT test
Format: cell-based, human
Conditions: read-out: CC50, TZM-bl cell viability
Experimental: The human TZM-bl indicator cell line was obtained from the American Type Culture Collection (Manassas, VA) and maintained at 37°C and 5% CO2 in Dulbecco's modified Eagle's medium (DMEM) containing 10% fetal bovine serum, 50 μg/mLpenicillin, and 50 μg/mL streptomycin. The HIV-1 virus NL(AD8) was titrated as follows: serial 5-fold dilutions of the virus were made in quadruplicate wells in 96-well culture plates, in a total volume of 100 μL of growth medium, for a total of 8 dilution steps. Freshly trypsinized cells (20,000 cells in 100 μL of growth medium containing 75 μg/mL DEAE-dextran) were added to each well, and the plates were incubated at 37°C in a humidified 5% CO2-95% air environment. After 48 h of incubation, the medium was removed and viral infection was quantified using a β-galactosidase (CPRG) assay (Roche). Twenty thousand TZM-bl cells/well were seeded in 96-well plates in complete DMEM supplemented with 30 μg/mL DEAE-dextran (Sigma-Aldrich). […] The TZM-bl indicator cell line has an integrated copy of the β-galactosidase gene under control of the HIV-1 promoter. Β-Galactosidase expression, measured by use of a chlorophenol red/β-D-galactopyranoside (CPRG) assay (Roche) in cell lysates 48 h post-infection was used as a marker of HIV infection. […]

Substance: Maraviroc [reference compound]
- CC50: > 20 µM
